Test results reported in publication PMC3198815 (PLoS ONE, 2011).

Columns and labels:
[1] = test system: NC(=O)C1=CN([C@@H]2O[C@H](COP(=O)(O)OP(=O)(O)OC[C@H]3O[C@@H](n4cnc5c(N)ncnc54)[C@H](O)[C@@H]3O)[C@@H](O)[C@H]2O)C=CC1; experiment: purified protein; conditions: crotonyl-CoA as substrate, 20 mM Tris-HCl pH 7.5, 1 mM NaCl, 25°C, varied: cofactor
[2] = test system: C/C=C/C(=O)SCCNC(=O)CCNC(=O)[C@H](O)C(C)(C)COP(=O)(O)OP(=O)(O)OC[C@H]1O[C@@H](n2cnc3c(N)ncnc32)[C@H](O)[C@@H]1OP(=O)(O)O; experiment: purified protein; conditions: NADH as co-substrate, 20 mM Tris-HCl pH 7.5, 1 mM NaCl, 25°C

Work on “xoFabV (Xanthomonas oryzae pv. oryzae MAFF 311018)” yielded a Km [1] of 18.7 ± 2.0 µM, a Km [2] of 293 ± 16.5 µM and a kcat [2] of 22.25 ± 2.42 s⁻¹. The kcat/Km [2] was 75000 M⁻¹ s⁻¹.
